Anti-infective test results gathered from many reports (values: NIAID ChemDB through PubChem).

Common to all: host cell toxicity; cells: CEM; read-out: CC50

Rows are shuffled and stem from different studies.

structure	result
NCCCC[C@H](NC(=O)c1ccccc1SSc1ccccc1C(=O)N[C@@H](CCCCN)C(=O)O)C(=O)O	>100 µM
CC(C)C(OC(=O)c1cc(NC(=S)c2ccccc2F)ccc1Cl)C(C)C	7.5 µg/mL
CC[C@H](C)[C@H](NC(=O)C(C)N(C(=O)[C@H](Cc1ccccc1)NC(=O)[C@H](C)NC(=O)OC(C)(C)C)C(Br)CBr)C(=O)N[C@H](C(=O)OC)C(C)C	>500 µg/mL
O=c1[nH]c2ccc(Cc3ccc(F)cc3)cc2o1	8 µg/mL
C=C(C)[C@@H]1CC[C@]2(C(=O)NCCCCCCCC(=O)NCC(O)CC(=O)O)CC[C@]3(C)[C@H](CC[C@@H]4[C@@]5(C)CC[C@H](O)C(C)(C)[C@@H]5CC[C@]43C)[C@@H]12	>3 µM
NC(=O)C[C@H](NC(=O)c1ccccc1SSc1ccccc1C(=O)N[C@@H](CC(N)=O)C(=O)O)C(=O)O	>100 µM
C=C(C)[C@@H]1CC[C@]2(C(=O)NCCCCCCCC(=O)NCC(C)C(=O)O)CC[C@]3(C)[C@H](CC[C@@H]4[C@@]5(C)CC[C@H](O)C(C)(C)[C@@H]5CC[C@]43C)[C@@H]12	>3 µM
Cc1cc(C)cc(Oc2c(C(C)C)c(=O)[nH]c(=O)n2CCC2CC=CC2)c1	18.2 µM
CCOC(=O)c1cc(NC(=O)C2=C(CC)OCCS2)ccc1Cl	26 µg/mL
Cc1c(C(=O)Nc2ccc(Cl)c(/C=N/OC(C)(C)C)c2)ccn1C	5.5 µg/mL
C=CCN(C(=O)[C@H](Cc1ccccc1)NC(=O)[C@H](C)NC(=O)[C@H](C)NC(=O)[C@H](CO)NC(=O)OC(C)(C)C)C(C)C(=O)N[C@H](C(=O)N[C@H](C(=O)OC)C(C)C)[C@@H](C)CC	>20 µg/mL
C=CCO/N=C/c1cc(NC(=S)c2ccoc2C)ccc1Cl	12 µg/mL
O=c1[nH]c2ccc(Cc3ccccc3F)cc2o1	4.5 µg/mL
Cc1cn([C@@H]2O[C@H](CO)[C@@H](CO)[C@@H]2F)c(=O)[nH]c1=O	≥100 µM
CCc1c(Oc2cc(C)cc(C)c2)n(CC2CC2)c(=O)[nH]c1=O	>1270 µM
C=CCN(CC(=O)N[C@H](C(=O)N[C@H](C(=O)OC)C(C)C)[C@@H](C)CC)C(=O)[C@@H](N)Cc1ccccc1	>100 µg/mL
O=C(c1ccccc1)c1ccc2c(c1)oc(=O)n2Cc1ccccc1	>40 µg/mL
C=CCOc1cc(NC(=S)c2ccoc2C)ccc1C#N	>100 µg/mL
C=CCN(C(=O)[C@H](Cc1ccccc1)NC(=O)[C@H](C)NC(=O)[C@H](C)NC(=O)OC(C)(C)C)C(C)C(=O)N[C@H](C(=O)N[C@H](C(=O)OC)C(C)C)[C@@H](C)CC	2.9 µg/mL
CC(C)C[C@@H](C(=O)O)N(C)C(=O)c1ccccc1SSc1ccccc1C(=O)N(C)[C@@H](CC(C)C)C(=O)O	>100 µM
CC1=C(C(=O)Nc2ccc(Cl)c(C(=O)OC3CCCCC3C)c2)SCCO1	12 µg/mL
CCc1c(Oc2cc(C)cc(C)c2)n(CC2CCC2)c(=O)[nH]c1=O	>1210 µM
O=C(OC1CCCCC1)c1cc(NC(=S)c2ccccc2Cl)ccc1Cl	8.3 µg/mL
CCc1c(Sc2ccccc2)n(CC2CC=CC2)c(=O)[nH]c1=O	39.9 µM
C=CCN(CC(=O)N[C@H](C(=O)N[C@H](C(=O)OC)C(C)C)[C@@H](C)CC)C(=O)OC(C)(C)C	>100 µg/mL
CC1=C(C(=O)Nc2ccc(Cl)c(OCCC(C)C)c2)SCCO1	>100 µg/mL
CC(C)C[C@H](NC(=O)c1ccccc1SSc1ccccc1C(=O)N[C@@H](CC(C)C)C(=O)O)C(=O)O	130 µM
CC1=C(C(=O)Nc2cc(C(=O)OC(C)C)c(F)cc2F)SCCO1	>100 µg/mL
COC(=O)[C@@H](NC(=O)c1ccccc1SSc1ccccc1C(=O)N[C@H](C(=O)OC)[C@H](C)O)[C@H](C)O	67 µM
C#CCO/N=C/c1cc(NC(=S)c2ccoc2C)ccc1Cl	10 µg/mL
CCCOC(=O)c1ccc(C)c(NC(=O)C2=C(C)OCCS2)c1	41 µg/mL
C/C=C/COc1cc(NC(=O)c2ccoc2C)ccc1Cl	5.8 µg/mL
C=C(C)[C@@H]1CC[C@]2(C(=O)NCCCC(=O)O)CC[C@]3(C)[C@H](CC[C@@H]4[C@@]5(C)CC[C@H](O)C(C)(C)[C@@H]5CC[C@]43C)[C@@H]12	>3 µM
Cc1occc1C(=S)Nc1ccc(Cl)c(C(=O)OCC(F)(F)F)c1	>100 µg/mL
O=C(c1cccc([N+](=O)[O-])c1)c1ccc2[nH]c(=O)oc2c1	36 µg/mL
Cc1occc1C(=S)Nc1ccc(Cl)c(C(=O)OCC(C)C)c1	8.5 µg/mL
CCCCOC(=O)c1cc(NC(=O)C2=C(C)OCCS2)ccc1Cl	22 µg/mL
CC(C)OC(=O)c1cc(NC(=S)c2ccccc2)ccc1Cl	4.3 µg/mL
C=C(C)[C@@H]1CC[C@]2(C(=O)NCCCCCCCC(=O)NCCCC(=O)O)CC[C@]3(C)[C@H](CC[C@@H]4[C@@]5(C)CC[C@H](O)C(C)(C)[C@@H]5CC[C@]43C)[C@@H]12	>3 µM
Cc1occc1C(=O)Nc1ccc(Cl)c(C(=O)OC(C)C2CC2)c1	44 µg/mL
CC1=C(C(=O)Nc2cccc(C(=O)OC(C)C)c2)SCCO1	24 µg/mL
COc1ccc(NC(=O)c2ccoc2C)cc1CC(=O)OC(C)C	52 µg/mL
CCc1c(Sc2cc(C)cc(C)c2)n(Cc2ccccc2)c(=O)[nH]c1=O	>1090 µM
C/C=C/CSc1cc(NC(=O)c2ccoc2C)ccc1Cl	5.9 µg/mL
C=C(C)[C@@H]1CC[C@]2(C(=O)NCCCCCCCC(=O)N[C@@H](CC(N)=O)C(=O)O)CC[C@]3(C)[C@H](CC[C@@H]4[C@@]5(C)CC[C@H](O)C(C)(C)[C@@H]5CC[C@]43C)[C@@H]12	>3 µM

For reference, 5 entries again:

| structure | result |
|---|---|
| Cc1occc1C(=O)Nc1ccc(Cl)c(C(=O)OC(C)C2CC2)c1 | 44 µg/mL |
| C=C(C)[C@@H]1CC[C@]2(C(=O)NCCCCCCCC(=O)N[C@@H](CC(N)=O)C(=O)O)CC[C@]3(C)[C@H](CC[C@@H]4[C@@]5(C)CC[C@H](O)C(C)(C)[C@@H]5CC[C@]43C)[C@@H]12 | >3 µM |
| CC[C@H](C)[C@H](NC(=O)C(C)N(C(=O)[C@H](Cc1ccccc1)NC(=O)[C@H](C)NC(=O)OC(C)(C)C)C(Br)CBr)C(=O)N[C@H](C(=O)OC)C(C)C | >500 µg/mL |
| Cc1occc1C(=S)Nc1ccc(Cl)c(C(=O)OCC(F)(F)F)c1 | >100 µg/mL |
| C/C=C/COc1cc(NC(=O)c2ccoc2C)ccc1Cl | 5.8 µg/mL |

CCn: concentration that lowers growth or viability of the cells by n%.